Data: patent US5147865A, “Phosphonopyrrolidine- and piperidine-containing pseudopeptides of the statin type, a process for their preparation and their use as medicaments against retroviruses” (Bayer Aktiengesellschaft, priority 1990, dated 1992)

These molecules were tested against HIV protease (Human immunodeficiency virus type 1 group M subtype B, UniProt P04585) (assay: HIV-specific protease enzyme test (RP-HPLC analysis of synthetic peptide cleavage)). Settings: read-out: IC50 (RP-HPLC); purified HIV protease, synthetic peptide imitating a Gag precursor cleavage site; concentration causing 50% inhibition of protease activity.
Protocol: This is confirmed using an HIV-specific protease enzyme test.
The results for the examples listed below were determined by the HIV test system described in the following literature reports [cf. Hansen, J., Billich, S., Schulze, T., Sukrow, S. and Molling, K. (1988), EMBO Journal, Vol. 7, No. 6, pages 1785-1791]: purified HIV protease was incubated with synthetic peptide which imitated a cleavage site in the Gag precursor protein and represented an in vivo cleavage site of the HIV protease. The resulting cleavage products of the synthetic peptide were analysed by means of reverse phase high performance liquid chromatography (RP-HPLC). The IC50 values given relate to the substance concentration which causes a 50% inhibition of protease activity under the abovementioned test conditions.

Compound	IC50
CCOP(=O)(OCC)C1CCCN1C(=O)C[C@@H](O)[C@H](CC1CCCCC1)NC(=O)[C@@H](NC(=O)c1cc2ccccc2[nH]1)C(C)C (stereo partly shown)	5 µM
CCOP(=O)(OCC)C1CCCN1C(=O)C[C@@H](O)[C@H](CC1CCCCC1)NC(=O)[C@@H](NC(=O)c1ccc2ccccc2c1)C(C)C (stereo partly shown)	10 µM
CCOP(=O)(OCC)C1CCCN1C(=O)C[C@H](O)[C@H](CC1CCCCC1)NC(=O)[C@@H](NC(=O)OC(C)(C)C)C(C)C (stereo partly shown)	100 µM
CCOP(=O)(OCC)C1CCCN1C(=O)C[C@H](O)[C@H](CC1CCCCC1)NC(=O)[C@@H](NC(=O)[C@H](Cc1ccccc1)NC(=O)CC(C)(C)C)C(C)C (stereo partly shown)	0.5 µM
CCOP(=O)(OCC)C1CCCN1C(=O)C[C@H](O)[C@H](CC1CCCCC1)NC(=O)[C@H](Cc1ccccc1)NC(=O)Nc1ccc(Cl)cc1 (stereo partly shown)	10 µM
CCOP(=O)(OCC)C1CCCN1C(=O)C[C@H](O)[C@H](CC1CCCCC1)NC(=O)[C@@H](NC(=O)c1cc2ccccc2[nH]1)C(C)C (stereo partly shown)	10 µM
CCOP(=O)(OCC)C1CCCN1C(=O)C[C@H](O)[C@H](CC1CCCCC1)NC(=O)[C@H](CC(N)=O)NC(=O)[C@H](Cc1ccccc1)NC(=O)OC(C)(C)C (stereo partly shown)	100 µM
CCOP(=O)(OCC)C1CCCN1C(=O)C[C@H](O)[C@H](CC1CCCCC1)NC(=O)[C@@H](NC(=O)[C@H](Cc1ccccc1)NC(C)=O)C(C)C (stereo partly shown)	0.1 µM
CCOP(=O)(OCC)C1CCCN1C(=O)C[C@H](O)[C@H](CC1CCCCC1)NC(=O)[C@@H](NC(=O)[C@H](Cc1ccccc1)NS(=O)(=O)c1ccc(C)cc1)C(C)C (stereo partly shown)	1 µM

Same assay, conditions: read-out: IC50 (RP-HPLC); purified HIV protease, synthetic peptide imitating a Gag precursor cleavage site; concentration causing 50% inhibition of protease activity; tested form: 2HCl

Compound	IC50
CCOP(=O)(OCC)C1CCCN1C(=O)C[C@H](O)[C@H](CC1CCCCC1)NC(=O)[C@@H](N)C(C)C (stereo partly shown)	10 µM
